Anti-infective test results gathered from many reports (values: NIAID ChemDB through PubChem).

Shared fields: tests in culture; species: HIV-1; method: cytopathic effect / MTT; read-out: EC50

Lines come from different laboratories, so protocols vary.

smiles	strain or isolate	mutations	cell line	value
O=C1/C(=N\n2c(-c3ccncc3)n[nH]c2=S)c2cc(Br)ccc2N1CN1CCOCC1	IIIB	-	MT-4	>11 µM
O=C(NCCO)c1[nH]c2ccc(Cl)cc2c1S(=O)(=O)c1ccccc1	IIIB	-	C8166	0.002 µM
COC(=O)/C=C1\S/C(=N/N=C/c2cccc(Br)c2)NC1=O	IIIB	-	MT-4	>11.15 µM
Cc1cc(C)cc(S(=O)(=O)c2c(C(=O)NCCO)[nH]c3ccc(Cl)cc23)c1	-	RT-K103N Y181C	MT-4	0.3 µM
CC(C)[C@]12C=C[C@](C)(CC1)[C@H]1C(=O)N(NC(=S)NC3CCCCC3)C(=O)[C@H]12	IIIB	-	MT-4	>53 µM
COC(=O)/C=C1\S/C(=N/N=C/c2cc([N+](=O)[O-])ccc2O)NC1=O	IIIB	-	MT-4	>0.088 µM
CCOC(=O)c1cc(-c2ccccc2)n(-c2cccc(N)c2)c1C	-	-	MT-4	>300 µM
CC1=C(C)[C@]2(C)C(C)[C@@]1(C)[C@@H]1C(=O)N(NC(=O)NC3CCCCC3)C(=O)[C@@H]12	IIIB	-	MT-4	>12 µM
O=C1/C(=N\n2c(-c3ccncc3)n[nH]c2=S)c2cc(Br)ccc2N1CN1CCCCC1	IIIB	-	MT-4	>11 µM
CC(C)(C)NC(=O)c1ccccc1OC[C@@H](O)[C@H](Cc1ccccc1)NC(=O)[C@H](CC(N)=O)NC(=O)c1ccc2ccccc2n1	IIIB	-	CEM	2.9 µM
CCOC(=O)c1cc(-c2cccc(N=[N+]=[N-])c2)n(-c2ccccc2)c1C	-	-	MT-4	>300 µM
COC(=O)/C=C1\S/C(=N/N=C/c2ccccc2OCc2ccccc2)NC1=O	IIIB	-	MT-4	>14.35 µM
Cc1ccc(S(=O)(=O)c2c(C(=O)NCCO)[nH]c3ccc(Cl)cc23)cc1	IIIB	-	C8166	0.085 µM
CCOC(=O)c1cc2c3cccc(OC)c3c3ccc(N)cc3n2c1C	-	-	MT-4	60 µM
Cc1ccc(Sc2c(C(=O)NCCO)[nH]c3ccc(Cl)cc23)c(C)c1	IIIB	-	C8166	0.6 µM
Cc1cn([C@H]2C=C[C@@H](CO)O2)c(=O)[nH]c1=O	HXB2 (RT T215 V75A K65R) Recombinant	-	MT-4	0.62 µM
O=C1Nc2ccc(Cl)cc2/C1=N/n1c(-c2ccncc2)n[nH]c1=S	IIIB	-	MT-4	>11 µM
COC(=O)/C=C1\S/C(=N/N=C/c2ccccc2Cl)NC1=O	IIIB	-	MT-4	>78.7 µM
O=C1/C(=N\n2c(-c3ccncc3)n[nH]c2=S)c2cc(Cl)ccc2N1CN1CCOCC1	IIIB	-	MT-4	>14 µM
N#CC1=CC2C(c3ccccc3N2Cc2ccccn2)N(c2ccc([N+](=O)[O-])cc2)C1=O	LAI	-	MT-4	1–32 µM
COC(=O)/C=C1\S/C(=N/N=C/c2ccccc2Br)NC1=O	IIIB	-	MT-4	>13.45 µM
COc1ccc2c(c1)c1cc(C(C)=O)c(C)n1c1cccc(N)c21	-	-	MT-4	>40 µM
Cc1cccc(S(=O)(=O)c2c(C(=O)NCCO)[nH]c3ccc(Cl)cc23)c1	IIIB	-	MT-4	0.003 µM
CN1c2ccccc2C2C1C=CC(=O)N2c1ccc(-c2noc(=O)n2CC#N)cc1	LAI	-	MT-4	1–32 µM
O=C1Nc2ccccc2/C1=N/n1c(-c2ccncc2)n[nH]c1=S	IIIB	-	MT-4	>11 µM
Cc1ccc(S(=O)(=O)c2c(C(=O)NNCCO)[nH]c3ccc(Cl)cc23)cc1	-	RT-K103N Y181C	MT-4	20 µM
Cc1nc(-c2ccc(N3C(=O)C=CC4C3c3ccccc3N4C)cc2)no1	LAI	-	MT-4	1–32 µM
NC(=O)c1[nH]c2ccc(Cl)cc2c1S(=O)(=O)c1ccccc1	IIIB	-	MT-4	0.002 µM
CC(C)(C)NC(=O)c1ccc2ccccc2c1OC[C@@H](O)[C@H](Cc1ccccc1)NC(=O)[C@H](CC(N)=O)NC(=O)c1ccc2ccccc2n1	IIIB	-	CEM	0.67 µM
Cc1cc(C)cc(Sc2c(C(=O)NCCO)[nH]c3ccc(Cl)cc23)c1	-	RT-K103N Y181C	MT-4	1.2 µM
CC(C)[C@]12C=C[C@](C)(CC1)[C@H]1C(=O)N(NC(=O)NC3CCCCC3)C(=O)[C@H]12	IIIB	-	MT-4	>72 µM
CN(C)CN1C(=O)/C(=N\n2c(-c3ccncc3)n[nH]c2=S)c2cc(Cl)ccc21	IIIB	-	MT-4	>12 µM
O=C(NNCCO)c1[nH]c2ccc(Cl)cc2c1S(=O)(=O)c1ccccc1	IIIB	-	C8166	0.02 µM
N#CC1=CC2C(c3ccccc3N2CCCCN2CCCCC2)N(c2ccc([N+](=O)[O-])cc2)C1=O	LAI	-	MT-4	<1 µM
CC(C)(C)NC(=O)c1ccccc1OC[C@H](O)[C@H](Cc1ccccc1)NC(=O)[C@H](CC(N)=O)NC(=O)c1ccc2ccccc2n1	IIIB	-	CEM	0.72 µM
COc1ccc(NC(=S)NN2C(=O)[C@@H]3[C@H](C2=O)[C@]2(C)C=C[C@@]3(C(C)C)CC2)cc1	IIIB	-	MT-4	>76 µM

The last 5 rows once more:

CN(C)CN1C(=O)/C(=N\n2c(-c3ccncc3)n[nH]c2=S)c2cc(Cl)ccc21 ; strain or isolate: IIIB ; cell line: MT-4 ; value: >12 µM
O=C(NNCCO)c1[nH]c2ccc(Cl)cc2c1S(=O)(=O)c1ccccc1 ; strain or isolate: IIIB ; cell line: C8166 ; value: 0.02 µM
N#CC1=CC2C(c3ccccc3N2CCCCN2CCCCC2)N(c2ccc([N+](=O)[O-])cc2)C1=O ; strain or isolate: LAI ; cell line: MT-4 ; value: <1 µM
CC(C)(C)NC(=O)c1ccccc1OC[C@H](O)[C@H](Cc1ccccc1)NC(=O)[C@H](CC(N)=O)NC(=O)c1ccc2ccccc2n1 ; strain or isolate: IIIB ; cell line: CEM ; value: 0.72 µM
COc1ccc(NC(=S)NN2C(=O)[C@@H]3[C@H](C2=O)[C@]2(C)C=C[C@@]3(C(C)C)CC2)cc1 ; strain or isolate: IIIB ; cell line: MT-4 ; value: >76 µM

ECn: concentration that inhibits the pathogen or its effect by n%. a–b is a range or a potency band. Blank or dashed fields: not listed here.